Data as given in US20250034125A1, “COMPOUNDS AND USES THEREOF” (JANSSEN PHARMACEUTICA NV, priority 2019, published 2025).

Columns and labels:
SCD5 = target: T1, SCD5 (Homo sapiens, UniProt Q86SK9); assay: Growth inhibition of yeast (ole1Δ) expressing human SCD5 as the sole desaturase; type: cell-based
T1 construct: host or cells: Saccharomyces cerevisiae ole1Δ strain (W303 pdr1Δ pdr3Δ background), plasmid pRS316, TDH3 promoter
T1 sequence (Q86SK9 1-330): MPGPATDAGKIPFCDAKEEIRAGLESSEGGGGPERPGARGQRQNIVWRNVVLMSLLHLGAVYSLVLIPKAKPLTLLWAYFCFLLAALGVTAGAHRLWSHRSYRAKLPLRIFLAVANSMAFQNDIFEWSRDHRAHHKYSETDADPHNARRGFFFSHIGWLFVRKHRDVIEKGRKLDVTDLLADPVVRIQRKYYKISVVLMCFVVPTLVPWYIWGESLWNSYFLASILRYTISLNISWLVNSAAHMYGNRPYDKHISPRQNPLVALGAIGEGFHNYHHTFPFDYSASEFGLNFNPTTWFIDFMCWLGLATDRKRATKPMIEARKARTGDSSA

SCD1 = target: T2, SCD1 (Homo sapiens, UniProt O00767); assay: Growth inhibition of yeast (ole1Δ) expressing human SCD1 as the sole desaturase; type: cell-based
T2 construct: host or cells: Saccharomyces cerevisiae ole1Δ strain (W303 pdr1Δ pdr3Δ background), plasmid pRS316, TDH3 promoter
T2 sequence (O00767 1-359): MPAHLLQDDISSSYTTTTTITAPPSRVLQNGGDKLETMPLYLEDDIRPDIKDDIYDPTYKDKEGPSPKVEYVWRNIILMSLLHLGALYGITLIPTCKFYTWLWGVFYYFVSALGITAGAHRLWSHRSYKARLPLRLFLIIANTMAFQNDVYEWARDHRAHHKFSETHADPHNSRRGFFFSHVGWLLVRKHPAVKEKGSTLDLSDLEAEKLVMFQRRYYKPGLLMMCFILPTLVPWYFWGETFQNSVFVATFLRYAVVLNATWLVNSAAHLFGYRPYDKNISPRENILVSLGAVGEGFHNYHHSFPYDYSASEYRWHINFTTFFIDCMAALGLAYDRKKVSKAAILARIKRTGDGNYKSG

In the case of `Cn1nc(NC(=O)N2CCC(Nc3ccccc3)CC2)ccc1=O` [Compound 91, N-(1-methyl-6-oxo-1,6-dihydropyridazin-3-yl)-4-(phenylamino) piperidine-1-carboxamide], the IC50 (SCD5) is reported as over 45 µM and the IC50 (SCD1) is reported as over 45 µM.
